In ChEMBL document CHEMBL5346973 (J Med Chem, 2023) one finds Ratio IC50 data, which are given here for eleven molecules.

Sequences of proteins named here, by UniProt entry; tags and fusion partners are left off. Residues count along the entry.
UniProt P04756, 21-457 limits assumed: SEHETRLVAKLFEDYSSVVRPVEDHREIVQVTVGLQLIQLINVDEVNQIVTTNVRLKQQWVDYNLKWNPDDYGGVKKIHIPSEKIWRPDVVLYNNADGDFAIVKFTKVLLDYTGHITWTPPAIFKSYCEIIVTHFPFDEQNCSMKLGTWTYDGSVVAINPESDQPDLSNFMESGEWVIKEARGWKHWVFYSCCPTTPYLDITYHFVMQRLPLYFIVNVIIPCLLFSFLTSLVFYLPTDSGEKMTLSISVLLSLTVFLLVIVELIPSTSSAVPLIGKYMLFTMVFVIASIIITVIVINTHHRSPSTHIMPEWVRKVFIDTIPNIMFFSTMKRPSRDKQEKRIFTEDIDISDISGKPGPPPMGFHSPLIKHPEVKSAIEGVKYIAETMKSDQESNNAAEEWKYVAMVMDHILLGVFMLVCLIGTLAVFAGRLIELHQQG
UniProt P09690, 24-501 partner limits assumed: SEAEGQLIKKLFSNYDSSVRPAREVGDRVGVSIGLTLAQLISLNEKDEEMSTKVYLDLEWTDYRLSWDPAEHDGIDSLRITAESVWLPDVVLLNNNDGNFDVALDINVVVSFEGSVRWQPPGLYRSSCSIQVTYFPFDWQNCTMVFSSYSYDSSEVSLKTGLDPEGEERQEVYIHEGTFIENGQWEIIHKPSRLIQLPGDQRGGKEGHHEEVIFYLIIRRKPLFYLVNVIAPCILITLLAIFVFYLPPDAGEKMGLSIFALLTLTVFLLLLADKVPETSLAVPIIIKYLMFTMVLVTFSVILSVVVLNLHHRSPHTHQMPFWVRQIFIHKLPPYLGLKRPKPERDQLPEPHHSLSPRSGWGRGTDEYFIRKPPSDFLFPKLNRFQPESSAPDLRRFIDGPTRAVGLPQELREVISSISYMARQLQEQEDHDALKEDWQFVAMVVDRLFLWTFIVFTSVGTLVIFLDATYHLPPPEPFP
UniProt P02716, 25-520 partner limits assumed: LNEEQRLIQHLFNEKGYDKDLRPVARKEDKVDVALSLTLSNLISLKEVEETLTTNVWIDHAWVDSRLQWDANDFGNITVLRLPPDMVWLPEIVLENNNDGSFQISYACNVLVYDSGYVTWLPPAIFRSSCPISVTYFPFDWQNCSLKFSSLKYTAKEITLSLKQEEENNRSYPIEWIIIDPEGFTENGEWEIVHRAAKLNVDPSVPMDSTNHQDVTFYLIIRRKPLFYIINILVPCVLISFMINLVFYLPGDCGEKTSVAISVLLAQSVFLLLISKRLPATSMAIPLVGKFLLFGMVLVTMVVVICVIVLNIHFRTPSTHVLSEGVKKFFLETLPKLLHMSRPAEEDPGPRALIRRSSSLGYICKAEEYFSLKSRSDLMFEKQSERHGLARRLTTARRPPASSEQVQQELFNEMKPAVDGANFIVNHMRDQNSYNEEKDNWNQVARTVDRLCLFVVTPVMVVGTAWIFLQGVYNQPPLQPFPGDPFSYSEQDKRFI
UniProt P20782, 21-493 partner limits assumed: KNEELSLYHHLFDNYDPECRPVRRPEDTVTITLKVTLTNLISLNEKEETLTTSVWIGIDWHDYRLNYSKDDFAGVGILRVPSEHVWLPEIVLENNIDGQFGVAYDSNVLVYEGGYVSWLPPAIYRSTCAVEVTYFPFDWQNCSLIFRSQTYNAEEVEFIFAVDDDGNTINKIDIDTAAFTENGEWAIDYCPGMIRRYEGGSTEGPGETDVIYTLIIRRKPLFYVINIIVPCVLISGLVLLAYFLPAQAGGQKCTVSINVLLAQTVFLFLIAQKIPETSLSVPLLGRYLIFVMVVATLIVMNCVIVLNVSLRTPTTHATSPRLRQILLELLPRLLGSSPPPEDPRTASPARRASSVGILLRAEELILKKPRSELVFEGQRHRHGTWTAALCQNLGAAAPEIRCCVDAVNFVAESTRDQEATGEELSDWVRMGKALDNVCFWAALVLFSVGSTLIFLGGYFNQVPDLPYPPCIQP

The nature of experiment [1]: Selectivity ratio of IC50 for mouse alpha1beta1deltaepsilon nACh receptor to IC50 for rat alpha9alpha10 nACh receptor.
Experiment [2] has as its target Nicotinic acetylcholine receptor alpha1/beta1/epsilon/delta (Mus musculus) (UniProt P04756+P09690+P02716+P20782). The experiment is described as follows: Antagonist activity at mouse alpha1beta1deltaepsilon nACh receptor expressed in Xenopus oocyte assessed as inhibition of acetylcholine-induced response at -70 mV holding potential by measuring ratio of IC50 by voltage-clamp based electrophysiological assay relative to GeXIVA. As to conditions: filed as antagonist.

`CC[C@H](C)[C@@H]1NC(=O)[C@H](CCCNC(=N)N)NC(=O)[C@H](CCCNC(=N)N)NC(=O)[C@@H](NC(=O)[C@H](Cc2ccc(O)cc2)NC(=O)[C@H](CCCNC(=N)N)NC(=O)[C@H](CCCNC(=N)N)NC(=O)[C@H](CCCNC(=N)N)NC(=O)[C@H](C)NC(=O)[C@H](CC(=O)O)NC(=O)[C@H](Cc2ccc(O)cc2)NC(=O)[C@@H]2CCCN2C(=O)[C@H](CO)NC(=O)[C@H](CCCNC(=N)N)NC(=O)[C@@H]2CSSC[C@H](NC(=O)[C@H](N)[C@H](C)O)C(=O)N[C@@H](CCCNC(=N)N)C(=O)N[C@@H](CO)C(=O)N[C@@H](CO)C(=O)NCC(=O)N[C@@H](CCCNC(=N)N)C(=O)N[C@@H](Cc3ccc(O)cc3)C(=O)N2)CSSC[C@@H](C(=O)N[C@H](C(=O)O)C(C)C)NC(=O)[C@H](C)NC(=O)[C@H](CC(=O)O)NC(=O)[C@H]([C@@H](C)O)NC1=O`: the Ratio IC50 in experiment [1] was found to be 85.6; in experiment [2] it was 5.3. On the same counts, the results for `CC[C@H](C)[C@@H]1NC(=O)[C@H](CCCNC(=N)N)NC(=O)[C@H](CCCNC(=N)N)NC(=O)[C@@H]2CSSC[C@H](NC(=O)[C@H](Cc3ccc(O)cc3)NC(=O)[C@H](CCCNC(=N)N)NC(=O)CNC(=O)[C@H](CO)NC(=O)[C@H](CO)NC(=O)[C@H](CCCNC(=N)N)NC(=O)[C@@H](NC(=O)[C@@H](N)[C@@H](C)O)CSSC[C@@H](C(=O)N[C@H](C(=O)O)C(C)C)NC(=O)[C@H](C)NC(=O)[C@H](CC(=O)O)NC(=O)[C@H]([C@@H](C)O)NC1=O)C(=O)N[C@@H](CCCNC(=N)N)C(=O)N[C@@H](CO)C(=O)N1CCC[C@H]1C(=O)N[C@@H](Cc1ccc(O)cc1)C(=O)N[C@@H](CC(=O)O)C(=O)N[C@@H](CCCNC(=N)N)C(=O)N[C@@H](CCCNC(=N)N)C(=O)N[C@@H](C)C(=O)N[C@@H](CCCNC(=N)N)C(=O)N[C@@H](Cc1ccc(O)cc1)C(=O)N2` are 15.9 and 1.1. As for `CC[C@H](C)[C@@H]1NC(=O)[C@H](CCCNC(=N)N)NC(=O)[C@H](CCCNC(=N)N)NC(=O)[C@@H]2CSSC[C@H](NC(=O)[C@H](Cc3ccc(O)cc3)NC(=O)[C@H](C)NC(=O)CNC(=O)[C@H](CO)NC(=O)[C@H](CO)NC(=O)[C@H](CCCNC(=N)N)NC(=O)[C@@H](NC(=O)[C@@H](N)[C@@H](C)O)CSSC[C@@H](C(=O)N[C@H](C(=O)O)C(C)C)NC(=O)[C@H](C)NC(=O)[C@H](CC(=O)O)NC(=O)[C@H]([C@@H](C)O)NC1=O)C(=O)N[C@@H](CCCNC(=N)N)C(=O)N[C@@H](CO)C(=O)N1CCC[C@H]1C(=O)N[C@@H](Cc1ccc(O)cc1)C(=O)N[C@@H](CC(=O)O)C(=O)N[C@@H](CCCNC(=N)N)C(=O)N[C@@H](CCCNC(=N)N)C(=O)N[C@@H](CCCNC(=N)N)C(=O)N[C@@H](CCCNC(=N)N)C(=O)N[C@@H](Cc1ccc(O)cc1)C(=O)N2`, the values for the Ratio IC50 in experiment [1] and in experiment [2] were 72.9 and 4.2, respectively. On the same counts, the results for `CC[C@H](C)[C@@H]1NC(=O)[C@H](CCCNC(=N)N)NC(=O)[C@H](CCCNC(=N)N)NC(=O)[C@@H]2CSSC[C@H](NC(=O)[C@H](Cc3ccc(O)cc3)NC(=O)[C@H](CCCNC(=N)N)NC(=O)CNC(=O)[C@H](CO)NC(=O)[C@H](CO)NC(=O)[C@H](CCCNC(=N)N)NC(=O)[C@@H](NC(=O)[C@@H](N)[C@@H](C)O)CSSC[C@@H](C(=O)N[C@H](C(=O)O)C(C)C)NC(=O)[C@H](C)NC(=O)[C@H](CC(=O)O)NC(=O)[C@H]([C@@H](C)O)NC1=O)C(=O)N[C@@H](CCCNC(=N)N)C(=O)N[C@@H](CO)C(=O)N1CCC[C@H]1C(=O)N[C@@H](Cc1ccc(O)cc1)C(=O)N[C@@H](CC(=O)O)C(=O)N[C@@H](CCCNC(=N)N)C(=O)N[C@@H](CCCNC(=N)N)C(=O)N[C@@H](CCCNC(=N)N)C(=O)N[C@@H](CCCNC(=N)N)C(=O)N[C@@H](C)C(=O)N2` are 32.6 and 1.5. Turning to `CC(C)[C@H](NC(=O)[C@@H]1CSSC[C@H](NC(=O)[C@@H](N)[C@@H](C)O)C(=O)N[C@@H](CCCNC(=N)N)C(=O)N[C@@H](CO)C(=O)N[C@@H](CO)C(=O)NCC(=O)N[C@@H](CCCNC(=N)N)C(=O)N[C@@H](Cc2ccc(O)cc2)C(=O)N[C@H]2CSSC[C@H](NC(=O)[C@H](Cc3ccc(O)cc3)NC(=O)[C@H](CCCNC(=N)N)NC(=O)[C@H](CCCNC(=N)N)NC(=O)[C@H](CCCNC(=N)N)NC(=O)[C@H](CCCNC(=N)N)NC(=O)[C@H](CC(=O)O)NC(=O)[C@H](Cc3ccc(O)cc3)NC(=O)[C@@H]3CCCN3C(=O)[C@H](CO)NC(=O)[C@H](CCCNC(=N)N)NC2=O)C(=O)N[C@@H](CCCNC(=N)N)C(=O)N[C@@H](CCCNC(=N)N)C(=O)N[C@@H](C)C(=O)N[C@@H]([C@@H](C)O)C(=O)N[C@@H](CC(=O)O)C(=O)N[C@@H](C)C(=O)N1)C(=O)O`, the Ratio IC50 came to 664 in experiment [1] and 1.1 in experiment [2]. On the same counts, the results for `CC[C@H](C)[C@@H]1NC(=O)[C@H](CCCNC(=N)N)NC(=O)[C@H](CCCNC(=N)N)NC(=O)[C@@H](NC(=O)[C@H](Cc2ccc(O)cc2)NC(=O)[C@H](CCCNC(=N)N)NC(=O)[C@H](CCCNC(=N)N)NC(=O)[C@H](CCCNC(=N)N)NC(=O)[C@H](CCCNC(=N)N)NC(=O)[C@H](CC(=O)O)NC(=O)[C@H](Cc2ccc(O)cc2)NC(=O)[C@@H]2CCCN2C(=O)[C@H](CO)NC(=O)[C@H](CCCNC(=N)N)NC(=O)[C@@H]2CSSC[C@H](NC(=O)[C@@H](N)[C@@H](C)O)C(=O)N[C@@H](CCCNC(=N)N)C(=O)N[C@@H](CO)C(=O)N[C@@H](CO)C(=O)NCC(=O)N[C@@H](CCCNC(=N)N)C(=O)N[C@@H](C)C(=O)N2)CSSC[C@@H](C(=O)N[C@H](C(=O)O)C(C)C)NC(=O)[C@H](C)NC(=O)[C@H](CC(=O)O)NC(=O)[C@H]([C@@H](C)O)NC1=O` are 192 and 3.7. On the same counts, the results for `CC[C@H](C)[C@@H]1NC(=O)[C@H](CCCNC(=N)N)NC(=O)[C@H](CCCNC(=N)N)NC(=O)[C@@H](NC(=O)[C@H](Cc2ccc(O)cc2)NC(=O)[C@H](CCCNC(=N)N)NC(=O)[C@H](CCCNC(=N)N)NC(=O)[C@H](CCCNC(=N)N)NC(=O)[C@H](CCCNC(=N)N)NC(=O)[C@H](CC(=O)O)NC(=O)[C@H](Cc2ccc(O)cc2)NC(=O)[C@@H]2CCCN2C(=O)[C@H](CO)NC(=O)[C@H](CCCNC(=N)N)NC(=O)[C@@H]2CSSC[C@H](NC(=O)[C@@H](N)[C@@H](C)O)C(=O)N[C@@H](CCCNC(=N)N)C(=O)N[C@@H](CO)C(=O)N[C@@H](CO)C(=O)NCC(=O)N[C@@H](C)C(=O)N[C@@H](Cc3ccc(O)cc3)C(=O)N2)CSSC[C@@H](C(=O)N[C@H](C(=O)O)C(C)C)NC(=O)[C@H](C)NC(=O)[C@H](CC(=O)O)NC(=O)[C@H]([C@@H](C)O)NC1=O` are 66.6 and 5.6.

In the case of `CC[C@H](C)[C@@H]1NC(=O)[C@H](CCCNC(=N)N)NC(=O)[C@H](CCCNC(=N)N)NC(=O)[C@@H](NC(=O)[C@H](Cc2ccc(O)cc2)NC(=O)[C@H](CCCNC(=N)N)NC(=O)[C@H](CCCNC(=N)N)NC(=O)[C@H](C)NC(=O)[C@H](CCCNC(=N)N)NC(=O)[C@H](CC(=O)O)NC(=O)[C@H](Cc2ccc(O)cc2)NC(=O)[C@@H]2CCCN2C(=O)[C@H](CO)NC(=O)[C@H](CCCNC(=N)N)NC(=O)[C@@H]2CSSC[C@H](NC(=O)[C@@H](N)[C@@H](C)O)C(=O)N[C@@H](CCCNC(=N)N)C(=O)N[C@@H](CO)C(=O)N[C@@H](CO)C(=O)NCC(=O)N[C@@H](CCCNC(=N)N)C(=O)N[C@@H](Cc3ccc(O)cc3)C(=O)N2)CSSC[C@@H](C(=O)N[C@H](C(=O)O)C(C)C)NC(=O)[C@H](C)NC(=O)[C@H](CC(=O)O)NC(=O)[C@H]([C@@H](C)O)NC1=O`, the Ratio IC50 was 174 in experiment [1] and 6 in experiment [2]. Turning to `CC[C@H](C)[C@@H]1NC(=O)[C@H](CCCNC(=N)N)NC(=O)[C@H](CCCNC(=N)N)NC(=O)[C@@H](NC(=O)[C@H](Cc2ccc(O)cc2)NC(=O)[C@H](CCCNC(=N)N)NC(=O)[C@H](CCCNC(=N)N)NC(=O)[C@H](CCCNC(=N)N)NC(=O)[C@H](CCCNC(=N)N)NC(=O)[C@H](CC(=O)O)NC(=O)[C@H](Cc2ccc(O)cc2)NC(=O)[C@@H]2CCCN2C(=O)[C@H](CO)NC(=O)[C@H](CCCNC(=N)N)NC(=O)[C@@H]2CSSC[C@H](NC(=O)[C@H](C)N)C(=O)N[C@@H](CCCNC(=N)N)C(=O)N[C@@H](CO)C(=O)N[C@@H](CO)C(=O)NCC(=O)N[C@@H](CCCNC(=N)N)C(=O)N[C@@H](Cc3ccc(O)cc3)C(=O)N2)CSSC[C@@H](C(=O)N[C@H](C(=O)O)C(C)C)NC(=O)[C@H](C)NC(=O)[C@H](CC(=O)O)NC(=O)[C@H]([C@@H](C)O)NC1=O`, the figures for the Ratio IC50 in experiment [1] and in experiment [2] were 45.7 and 0.7, respectively. The matching figures for `CC[C@H](C)[C@@H]1NC(=O)[C@H](CCCNC(=N)N)NC(=O)[C@H](CCCNC(=N)N)NC(=O)[C@@H](NC(=O)[C@H](C)NC(=O)[C@H](CCCNC(=N)N)NC(=O)[C@H](CCCNC(=N)N)NC(=O)[C@H](CCCNC(=N)N)NC(=O)[C@H](CCCNC(=N)N)NC(=O)[C@H](CC(=O)O)NC(=O)[C@H](Cc2ccc(O)cc2)NC(=O)[C@@H]2CCCN2C(=O)[C@H](CO)NC(=O)[C@H](CCCNC(=N)N)NC(=O)[C@@H]2CSSC[C@H](NC(=O)[C@@H](N)[C@@H](C)O)C(=O)N[C@@H](CCCNC(=N)N)C(=O)N[C@@H](CO)C(=O)N[C@@H](CO)C(=O)NCC(=O)N[C@@H](CCCNC(=N)N)C(=O)N[C@@H](Cc3ccc(O)cc3)C(=O)N2)CSSC[C@@H](C(=O)N[C@H](C(=O)O)C(C)C)NC(=O)[C@H](C)NC(=O)[C@H](CC(=O)O)NC(=O)[C@H]([C@@H](C)O)NC1=O`: 176 and 5.4. Take `CC[C@H](C)[C@@H]1NC(=O)[C@H](CCCNC(=N)N)NC(=O)[C@H](CCCNC(=N)N)NC(=O)[C@@H]2CSSC[C@H](NC(=O)[C@H](Cc3ccc(O)cc3)NC(=O)[C@H](CCCNC(=N)N)NC(=O)CNC(=O)[C@H](CO)NC(=O)[C@H](C)NC(=O)[C@H](CCCNC(=N)N)NC(=O)[C@@H](NC(=O)[C@@H](N)[C@@H](C)O)CSSC[C@@H](C(=O)N[C@H](C(=O)O)C(C)C)NC(=O)[C@H](C)NC(=O)[C@H](CC(=O)O)NC(=O)[C@H]([C@@H](C)O)NC1=O)C(=O)N[C@@H](CCCNC(=N)N)C(=O)N[C@@H](CO)C(=O)N1CCC[C@H]1C(=O)N[C@@H](Cc1ccc(O)cc1)C(=O)N[C@@H](CC(=O)O)C(=O)N[C@@H](CCCNC(=N)N)C(=O)N[C@@H](CCCNC(=N)N)C(=O)N[C@@H](CCCNC(=N)N)C(=O)N[C@@H](CCCNC(=N)N)C(=O)N[C@@H](Cc1ccc(O)cc1)C(=O)N2`: in experiment [1], the Ratio IC50 is 53.5.
